Anti-infective test results gathered from many reports (values: NIAID ChemDB through PubChem).

All rows: growth or infection tests; organism: Mycobacterium tuberculosis

ECn is the concentration giving n% inhibition of infection, replication or growth.

smiles	measure	conditions	strain	tested at	changes	read by	value
CCN(CC)CCN(CC)C(=O)COc1cc2c(O)c3c(O)c(C)c4c(c13)C(=O)[C@@](C)(O/C=C/[C@H](OC)[C@@H](C)[C@@H](OC(C)=O)[C@H](C)[C@H](O)[C@H](C)[C@@H](O)[C@@H](C)/C=C/C=C(/C)C(=O)N2)O4	MIC		H37Rv				0.075 µg/mL
C=CCSS/C=C/CS(=O)CC=C	MIC		TAC-R				>12.5 µg/mL
CO[C@H]1/C=C/O[C@@]2(C)Oc3c(C)c(O)c4c(O)c(c(/C=N/N5CCN(C)CC5)c(O)c4c3C2=O)NC(=O)/C(C)=C\C=C\[C@H](C)[C@H](O)[C@@H](C)[C@@H](O)[C@@H](C)[C@H](OC(C)=O)[C@@H]1C	MIC		DprE1				0.01 µM
COC(=O)C1(CC[N+](=O)[O-])N=C(c2ccccc2)OC1C	MIC bound		H37Rv			BACTEC	>12.5 µg/mL
CC(C)N=c1cc2n(-c3ccc(Cl)cc3)c3ccccc3nc-2cc1Nc1ccc(Cl)cc1	MIC		Praha 1				0.53 µM
Cc1c(Cl)c(=O)oc2cc(OCCN3CCN(Cc4ccc(Br)cc4)CC3)ccc12	inhibition		H37Rv	50 µM		fluorescence	57.53%
O=C(CSc1nc2ccc(Cl)cc2c(=O)n1-c1ccccc1)N=Nc1c(O)[nH]c2ccc(Br)cc12	MIC		H37Rv				>12.5 µg/mL
CC(C)(C)OC(=O)N1N=NC2C1C1CC(OCc3ccccc3)(OCc3ccccc3)C2O1	inhibition		H37Rv	12.5 µg/mL		BACTEC	0%
CC(=O)NC[C@H]1CN(c2ccc(N3CCN(Cc4ccc([N+](=O)[O-])s4)CC3)c(F)c2)C(=O)O1	MIC50		59 isolates				0.032 µg/mL
COc1ccc(/C=N/N(C(=O)c2ccncc2)C(=O)c2cnccn2)c(O)c1	MIC		9 isolates (sensitive)				>16 µg/mL
NNC(=O)c1ccncc1	MIC		1S				0.1 µg/mL
Clc1cc(Cl)cc(-n2cc(CNC3c4ccccc4-c4ccccc43)nn2)c1	MIC99		H37Rv			broth dilution	>246 µM
CCCCn1c(-c2ccc(OC)cc2)cs/c1=N\N=C1/C(=O)Nc2ccccc21	EC50		H37Rv				12 µg/mL
O=C1C(Cl)=C(N2CCN(C3=C(Cl)C(=O)c4ccccc4C3=O)CC2)C(=O)c2ccccc21	MIC bound		H37Rv			BACTEC	>12.5 µg/mL
CO[C@H]1/C=C/O[C@@]2(C)Oc3c(C)c(O)c4c(O)c(cc(OCC(=O)NC(C)C)c4c3C2=O)NC(=O)/C(C)=C\C=C\[C@H](C)[C@H](O)[C@@H](C)[C@@H](O)[C@@H](C)[C@H](OC(C)=O)[C@@H]1C	MIC		H37Rv				0.075 µg/mL
CC1=C(C(=O)Nc2ccc(C)cc2C)C(c2cccc([N+](=O)[O-])c2)C(C(=O)Nc2ccc(C)cc2C)=C(C)N1	EC50		H37Rv				<2.5 µg/mL
CCNc1cc(N)[n+](CC)c2n[nH]c(N)c12	MIC bound		H37Rv			BACTEC	>12.5 µg/mL
Cc1cccc2c(CN3CC[C@H](NS(C)(=O)=O)C3)c(-c3ccccc3)[nH]c12	MIC						3.1 µM
CO[C@H]1/C=C/O[C@@]2(C)Oc3c(C)c(O)c4c(O)c(c(/C=N/OC(C)C)c(O)c4c3C2=O)NC(=O)/C(C)=C\C=C\[C@H](C)[C@H](O)[C@@H](C)[C@@H](O)[C@@H](C)[C@H](OC(C)=O)[C@@H]1C	MIC		H37Rv				0.05 µg/mL
O=S(=O)(Cc1cn(-c2ccc(Cl)cc2)nn1)C1c2ccccc2-c2ccccc21	MIC99		H37Rv			broth dilution	119 µM
O=C(c1ccncc1)N(/N=C/c1cccc([N+](=O)[O-])c1)C(=O)c1cnccn1	MIC		9 isolates (sensitive)				1–2 µg/mL
CCN(C)C(=O)COc1cc2c(O)c3c(O)c(C)c4c(c13)C(=O)[C@@](C)(O/C=C/[C@H](OC)[C@@H](C)[C@@H](OC(C)=O)[C@H](C)[C@H](O)[C@H](C)[C@@H](O)[C@@H](C)/C=C/C=C(/C)C(=O)N2)O4	MIC		H37Rv				0.37 µg/mL
Cc1cc(=O)c2cc(N(C)C)ccc2[nH]1	MIC bound		H37Rv			BACTEC	>12.5 µg/mL
O=c1cc(C(F)(F)F)c2ccc(OCc3ccc(Br)cc3)cc2o1	inhibition		H37Rv	1 µM		fluorescence	<0%
C=CCN1C(=O)C(C)S/C1=N\N=C1/C(=O)Nc2ccccc21	EC50		H37Rv				>12 µg/mL
Cc1c(C#N)c(=O)oc2cc(OCc3ccc(Br)cc3)ccc12	inhibition		H37Rv	100 µM		fluorescence	66.48%
COc1ccc(-n2cc(CNC3c4ccccc4-c4ccccc43)nn2)cc1	MIC99		H37Rv			broth dilution	136 µM
CSC(=S)N/N=C(/C)Cc1ccccn1	MIC		CS-R				0.8 µg/mL
CCCCCC(C)O/N=C/c1c2c(O)c3c(O)c(C)c4c(c3c1O)C(=O)[C@@](C)(O/C=C/[C@H](OC)[C@@H](C)[C@@H](OC(C)=O)[C@H](C)[C@H](O)[C@H](C)[C@@H](O)[C@@H](C)/C=C/C=C(/C)C(=O)N2)O4	MIC		H37Rv				2 µg/mL
C=CCC1OC(=O)CCNC(=O)C(C)N(C)C(=O)C(C(C)C)N(C)C(=O)C(C(C)CC)NC(=O)C2CCCN2C1=O	inhibition		H37Rv	12.5 µg/mL		BACTEC	6%
CO[C@H]1/C=C/O[C@@]2(C)Oc3c(C)c(O)c4c(O)c(c(/C=N/N5CCN(C)CC5)c(O)c4c3C2=O)NC(=O)/C(C)=C\C=C\[C@H](C)[C@H](O)[C@@H](C)[C@@H](O)[C@@H](C)[C@H](OC(C)=O)[C@@H]1C	MIC		FJ05349		Clinically sensitive strain	resazurin	0.5 µg/mL
Cc1ccc(Cn2nnc(-c3cc([N+](=O)[O-])cc([N+](=O)[O-])c3)n2)cc1	MIC	21 d	8666/2010				0.125 µM
Cc1cc(-n2cccn2)ccc1S(=O)(=O)NC1CCN(Cc2ccncc2)CC1	MIC						0.39 µM
O=[N+]([O-])c1ccc(-n2cc(CNC3c4ccccc4-c4ccccc43)nn2)cc1	MIC99		Specimen 192			broth dilution	>261 µM
NCC[C@H](O)C(=O)N[C@@H]1C[C@H](N)[C@@H](O[C@H]2O[C@H](CN)[C@@H](O)[C@H](O)[C@H]2O)[C@H](O)[C@H]1O[C@H]1O[C@H](CO)[C@@H](O)[C@H](N)[C@H]1O	MIC		6S				2.5 µg/mL
CCN(CC)CCNc1cccc2oc3ccc(OS(=O)(=O)c4ccc(C)cc4)cc3c(=O)c12	MIC bound		H37Rv			BACTEC	≤12.5 µg/mL
CC1S/C(=N/N=C2\C(=O)Nc3ccc(Br)cc32)N(c2ccccc2)C1=O	MIC		H37Rv				>12.5 µg/mL
CSc1ccc(C2C(C(=O)Nc3ccc(C)cc3C)=C(C)NC(C)=C2C(=O)Nc2ccc(C)cc2C)cc1	inhibition		H37Rv	2.5 µg/mL			59%
CCCCn1c(-c2ccc([N+](=O)[O-])cc2)cs/c1=N\N=C1/C(=O)Nc2ccc(Br)cc21	EC50		H37Rv				<12 µg/mL
Cc1ccc(-n2cc(CNC3c4ccccc4-c4ccccc43)nn2)cc1C	MIC99		Specimen 192			broth dilution	>273 µM
NC1=NN(c2ccccc2)C(=O)C1C(=O)C(=O)NC1C2CC3CC(C2)CC1C3	MIC bound		H37Rv			resazurin	>6.25 µg/mL
O=C(c1ccncc1)N(/N=C/c1ccc(Cl)cc1Cl)C(=O)c1cnccn1	MIC		H37Rv				>16 µg/mL
CO[C@H]1/C=C/O[C@@]2(C)Oc3c(C)c(O)c4c(O)c(c(/C=N/N5CCN(C6CCCC6)CC5)c(O)c4c3C2=O)NC(=O)/C(C)=C\C=C\[C@H](C)[C@H](O)[C@@H](C)[C@@H](O)[C@@H](C)[C@H](OC(C)=O)[C@@H]1C	MIC		1028				0.08 µg/mL
CC(=O)OCC1=COC(OC(=O)CC(C)(C)OC(C)=O)C2C1=CC(OC(=O)CC(C)C)C21CO1	inhibition		H37Rv	12.5 µg/mL		BACTEC	7%
Cc1c(Cl)c(=O)oc2cc(OCc3ccccc3)ccc12	inhibition		H37Rv	1 µM		fluorescence	2.7%
COC(=O)C(=O)c1c(C2CC2)[nH]c2[nH]n(-c3ccccc3)c(=O)c2c1=O	MIC bound		H37Rv			BACTEC	>12.5 µg/mL
C=C[C@](C)(Cl)[C@@H](Br)/C=C/[C@](C)(Cl)CBr	MIC		ATCC 35830 (ethionamide-resistant)				6.25 µg/mL
O=c1ccc2ccc(OCCN3CCN(Cc4ccc(Br)cc4)CC3)cc2o1	inhibition		H37Rv	1 µM		fluorescence	4.82%
CCCCC(=O)N/N=C/c1ccc(O)cc1O	MIC bound		H37Rv			BACTEC	>12.5 µg/mL
COCCN(C1CCN(CC2C(c3ccc(C)cc3)=Nc3c(C)cccc32)C1)S(C)(=O)=O	MIC						25 µM
C=CCO/N=C/c1c2c(O)c3c(O)c(C)c4c(c3c1O)C(=O)[C@@](C)(O/C=C/[C@H](OC)[C@@H](C)[C@@H](OC(C)=O)[C@H](C)[C@H](O)[C@H](C)[C@@H](O)[C@@H](C)/C=C/C=C(/C)C(=O)N2)O4	MIC		H37Rv				0.2 µg/mL
O=S(=O)(NC1CCN(Cc2cccnc2)CC1)c1ccc(-n2cccn2)cc1	MIC						100 µM
CCCCCCCCCO/N=C/c1c2c(O)c3c(O)c(C)c4c(c3c1O)C(=O)[C@@](C)(O/C=C/[C@H](OC)[C@@H](C)[C@@H](OC(C)=O)[C@H](C)[C@H](O)[C@H](C)[C@@H](O)[C@@H](C)/C=C/C=C(/C)C(=O)N2)O4	MIC		H37Rv				10 µg/mL
O=C(c1ccncc1)N(/N=C/c1ccc(Cl)cc1)C(=O)c1cnccn1	MIC		H37Rv				0.5 µg/mL
COc1c2occc2c(S(=O)(=O)O)c2ccc(=O)oc12	inhibition		H37Rv	12.5 µg/mL		BACTEC	9%
CCc1ccc(-n2cc(CS(=O)(=O)C3c4ccccc4-c4ccccc43)nn2)cc1	MIC99		H37Rv			broth dilution	120 µM
Cc1ccc(N2C(c3ccccc3)=CC(=C3C=CC(=O)C=C3)C=C2c2ccccc2)cc1	inhibition		H37Rv	12.5 µg/mL		BACTEC	95%
Fc1ccc(-n2cc(CNC3c4ccccc4-c4ccccc43)nn2)cc1Cl	MIC99		H37Rv			broth dilution	>256 µM
CN[C@@H]1[C@H](O[C@H]2[C@H](O[C@H]3[C@H](O)[C@@H](O)[C@H](N=C(N)N)[C@@H](O)[C@@H]3N=C(N)N)O[C@@H](C)[C@]2(O)C=O)O[C@@H](CO)[C@H](O)[C@H]1O	MIC		Praha 4				>27.5 µM
C=C1[C@@H]2[C@H]3OC(=O)C(=C)[C@@H]3CCC(=C)[C@@H]2C[C@@H]1O	inhibition		H37Rv	12.5 µg/mL		BACTEC	19%
O=C(c1ccncc1)N(/N=C/c1ccco1)C(=O)c1cnccn1	MIC		9 isolates (sensitive)				4–8 µg/mL
CC(/C=N/NC(=S)NC12CC3CC(CC(C3)C1)C2)=C\c1ccccc1	MIC bound		H37Rv			BACTEC	>6.25 µg/mL
C=CCN=C(N=Nc1c(O)[nH]c2ccccc12)SCC(=O)c1ccccc1	MIC		H37Rv				>12.5 µg/mL
NC(=O)NC1C(C(=O)O)N(Cc2ccccc2)C(=O)N1Cc1ccccc1	MIC bound		H37Rv			BACTEC	>12.5 µg/mL
CO[C@H]1/C=C/O[C@@]2(C)Oc3c(C)c(O)c4c(O)c(cc(OCC(=O)N(C)C(C)(C)C)c4c3C2=O)NC(=O)/C(C)=C\C=C\[C@H](C)[C@H](O)[C@@H](C)[C@@H](O)[C@@H](C)[C@H](OC(C)=O)[C@@H]1C	MIC		H37Rv				0.37 µg/mL
CC(=O)Nc1nc(=O)n(CC(=O)c2cccs2)cc1F	inhibition		H37Rv	6.25 µg/mL		resazurin	13%
COc1cc(C2C(C(=O)Nc3ccc(Cl)cc3)=C(C)NC(C)=C2C(=O)Nc2ccc(Cl)cc2)cc(OC)c1OC	inhibition		H37Rv	2.5 µg/mL			94%
CC1=C(C#N)C2(N)OC1(C)C1C(=O)C=CC(=O)C12	MIC bound		H37Rv			BACTEC	>12.5 µg/mL
COc1ccc(C2C(C(=O)Nc3ccc(Cl)cc3)=C(C)NC(C)=C2C(=O)Nc2ccc(Cl)cc2)c(O)c1	inhibition		H37Rv	2.5 µg/mL			81%

Repeating the final 5 entries:

smiles | measure | conditions | strain | tested at | changes | read by | value
CO[C@H]1/C=C/O[C@@]2(C)Oc3c(C)c(O)c4c(O)c(cc(OCC(=O)N(C)C(C)(C)C)c4c3C2=O)NC(=O)/C(C)=C\C=C\[C@H](C)[C@H](O)[C@@H](C)[C@@H](O)[C@@H](C)[C@H](OC(C)=O)[C@@H]1C | MIC |  | H37Rv |  |  |  | 0.37 µg/mL
CC(=O)Nc1nc(=O)n(CC(=O)c2cccs2)cc1F | inhibition |  | H37Rv | 6.25 µg/mL |  | resazurin | 13%
COc1cc(C2C(C(=O)Nc3ccc(Cl)cc3)=C(C)NC(C)=C2C(=O)Nc2ccc(Cl)cc2)cc(OC)c1OC | inhibition |  | H37Rv | 2.5 µg/mL |  |  | 94%
CC1=C(C#N)C2(N)OC1(C)C1C(=O)C=CC(=O)C12 | MIC bound |  | H37Rv |  |  | BACTEC | >12.5 µg/mL
COc1ccc(C2C(C(=O)Nc3ccc(Cl)cc3)=C(C)NC(C)=C2C(=O)Nc2ccc(Cl)cc2)c(O)c1 | inhibition |  | H37Rv | 2.5 µg/mL |  |  | 81%

Blank or dashed fields: not listed here. Inhibition is in % at the dose shown (toxicity tests: loss of growth or viability). MIC bound: limit read from a one-dose screen. Lines come from different laboratories, so protocols vary. Two numbers with a dash give a range or band. MIC50, MIC90 and the like: level of inhibition, or share of isolates inhibited.